In patent US20220380341A1, “INHIBITORS OF HIV-1 NEF FOR THE TREATMENT OF HIV DISEASE” (priority 2018, published 2022):
Where two headings read alike, the source gives them in different places.

Protein sequences, listed by entry. Tags and fused reporters are not part of them. Residues count along the entry.
UniProt P03406, 2-206 V11I/T15A/A33V/T51N limits assumed: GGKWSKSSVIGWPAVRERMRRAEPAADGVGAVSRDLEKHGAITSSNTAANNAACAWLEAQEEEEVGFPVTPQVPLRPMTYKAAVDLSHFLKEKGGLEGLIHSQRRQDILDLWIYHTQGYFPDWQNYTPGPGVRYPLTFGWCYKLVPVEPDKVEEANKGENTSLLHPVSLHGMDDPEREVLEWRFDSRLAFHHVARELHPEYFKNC

How the values were obtained:
HIV-1 NefNL4-3 = HIV-1 NefNL4-3 (Human immunodeficiency virus type 1 group M subtype B, UniProt P03406, A33V/T15A/T51N/V11I); test: Surface plasmon resonance binding to recombinant full-length Nef (NL4-3); conditions: for T, minutes (residence time): 1:1 Langmuir fit, T = 1/koff; for RU30/RUNef (extent of binding): response units at 30 μM relative to Nef immobilized on the SPR chip
Experimental: FIG. 1. Structures and by surface plasmon resonance (SPR) sensorgrams for several compounds disclosed herein. Each of the compounds shown was assayed for interaction with HIV-1 NefNL4-3 by SPR. In particular, Recombinant HIV-1 Nef protein (strain NL4-3) was expressed in E. coli and purified to homogeneity. The Nef protein was immobilized on the surface of a carboxymethyl dextran hydrogel biosensor chip, and each compound was injected over a range of concentrations in duplicate (concentrations shown at lower left) for 90 seconds, followed by a 120 second dissociation phase. The resulting sensorgrams were best fit by either a 1:1 Langmuir binding model or by a two-step induced-fit model, and the KD values shown were calculated from the resulting kinetic rate constants. Compounds were tested over the range of concentrations shown, and the resulting sensorgrams were best-fit by a two-step induced-fit model. The resulting KD values are shown below each compound number.
FIG. 2. Structures and SPR data for several compounds disclosed herein. Each of the compounds shown was assayed for interaction with HIV-1 NefNL4-3 by SPR. Compounds were tested over the range of concentrations shown, and the resulting sensorgrams were best-fit by a two-step induced-fit model. The resulting KD values are shown below each compound.

HIV-1NL4-3 = test: HIV-1 infectivity assay in TZM-bl reporter cell line (LTR-luciferase, 48 h); assay type: cell-based; conditions: for % Infectivity Inhibition: 1.0 μM, TZM-bl reporter cell line, Table 4; for HIV-1 Infectivity % Inhibition Norm. to Δ-Nef @ 1 μM: Table 2, TZM-bl cells, 48 h, 100% = Nef-defective HIV-1
Experimental: In particular, the tables show antiretroviral activity as percent inhibition of HIV-1 infectivity at 1 μM. In brief, this assay uses the TZM-bl reporter cell line, which carries a stable copy of the HIV-1 LTR coupled to luciferase. Cells are infected with HIV-1NL4-3 in the presence and absence of each compound, and luciferase activity is measured 48 h later. This assay measures early events in the HIV-1 life cycle, including viral entry, reverse transcription, nuclear entry and integration, and viral transcription. All assays include control cells infected with Nef-defective HIV-1, which replicates at 30-50% of wild-type in this system. Results are normalized to percent inhibition relative to DMSO-treated control cells infected with wild-type HIV-1 (0% inhibition) and DMSO-treated cells infected with Nef-defective HIV-1 (100% of the Nef-dependent effect)—see column 3. In addition, cell viability is measured in the TZM-bl cell line in the presence of each test compound and in the absence of HIV-1 infection, using the Cell Titer Blue cell viability assay (Promega; column 4).

[1] = Table 4, SPR fit 1:1 Langmuir, KD = koff/kon
[2] = read-out: Nef NL4-3 Binding, SPR 1:1 or 2-site fitting KD1, Table 2, 1:1 Langmuir fit where the KD2 cell says '1 to 1 fitting', else 2-site fit

| Compound | T, minutes (residence time) (HIV-1 NefNL4-3; Table 4) | Kd (HIV-1 NefNL4-3; [1]) [µM] | Kd (HIV-1 NefNL4-3; [2]) [µM] | RU30/RUNef (extent of binding) (HIV-1 NefNL4-3) | % Infectivity Inhibition (HIV-1NL4-3) [%] | HIV-1 Infectivity % Inhibition Norm. to Δ-Nef @ 1 μM (HIV-1NL4-3) [%] |
| --- | --- | --- | --- | --- | --- | --- |
| CS(=O)(=O)c1ccc(-c2nn(-c3cc(C4CC4)n[nH]3)c(O)c2CCC2CCOCC2)cc1 [Compound I-607] | 3.74E- 01 minutes | 88.6 | 6.92 | 7.73E- 03 | 57.3 | 57.3 |
| Fc1ccc(-c2nn(-c3cc(C(F)(F)F)n[nH]3)cc2CCc2ccccc2)cc1 [Compound I-1501] | 2.36E + 02 minutes | 0.198 | 0.942 | 1.15E- 02 | 3 | −21.4 |
